Laboratory results: PubChem BioAssay AID504761 (Drosophila RNAi Screening Center, 2011)

Test: 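Insect host genes that dengue virus relies on to spread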 (primary screen)
System: D.Mel-2 cells from Drosophila
Reagents: long dsRNA against Drosophila genes
Treatment: infection with dengue virus type 2; dose and infection time not stated
Detection: 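Cells stained for dengue envelope protein and imaged; percent of infected cells per well on duplicate plates, ranked by infection, with stained nuclei counted for cell number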
Scale: infection score: higher = more virus-infected cells; cell count: higher = more cells in the well
Hit rule: 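Very low infection ranking in both replicate wells (chance probability at most 0.065), then a retest showing infection dropped 1.5-fold or more at p below 0.05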
Calls: active = confirmed: knock-down lowers infection; inactive = not picked or not confirmed
The deposit covers about 22,000 reagents; below is an unselected part of those that have a named target and a result. In the full data, 116 (0.52%) got an active call. 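Calls depend on retest data that are not deposited; infection was ranked per plate without normalising between plates; the unit of the infection score is not given.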 Raw values are not corrected between plates. Not all columns of the deposit are shown. The record does not give: the amount of reagent, the time to read-out.

CG42360 [DRSC04224] gave infection score, replicate 1 = 5.63; cell count, replicate 1 = 6785; inactive. larp [DRSC14728] scored infection score, replicate 1 = 1.36; cell count, replicate 1 = 5521; inactive. larp [DRSC16984] scored infection score, replicate 1 = 2.33; cell count, replicate 1 = 5586; inactive. Against larp [DRSC21856], the entry reads infection score, replicate 1 = 12.9; cell count, replicate 1 = 5025; inactive. larp [DRSC24427] gave infection score, replicate 1 = 1.64; cell count, replicate 1 = 5616; inactive. After knock-down of larp [DRSC28325] the results were infection score, replicate 1 = 9.75; cell count, replicate 1 = 3303; inactive.

For gd [DRSC20336], the entry reads infection score, replicate 1 = 1.07; cell count, replicate 1 = 6473; inactive. After knock-down of ash2 [DRSC16902], the record shows infection score, replicate 1 = 4.21; cell count, replicate 1 = 6751; inactive. After knock-down of scyl [DRSC11392], the screen gave infection score, replicate 1 = 1.17; cell count, replicate 1 = 5715; inactive. For scyl [DRSC27699], the values are infection score, replicate 1 = 5.5; cell count, replicate 1 = 6203; inactive. Against RhoU [DRSC17803], the values are infection score, replicate 1 = 7.08; cell count, replicate 1 = 6311; inactive. After knock-down of RhoU [DRSC17804] the results were infection score, replicate 1 = 7.83; cell count, replicate 1 = 6526; inactive.

With knock-down of RhoU [DRSC22159] the results were infection score, replicate 1 = 24.8; cell count, replicate 1 = 5502; inactive. RhoU [DRSC22396] showed infection score, replicate 1 = 1.89; cell count, replicate 1 = 5861; inactive. RhoU [DRSC25197] showed infection score, replicate 1 = 24.1; cell count, replicate 1 = 6200; inactive. For RhoU [DRSC28919] the deposit lists infection score, replicate 1 = 13.4; cell count, replicate 1 = 5516; inactive.
